Source: PubChem BioAssay AID624099 (ICCB-Longwood, 2012)
Purpose: 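Host factors E2 relies on to silence an HPV18 LCR reporter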 (primary screen). Cell system: human C33A cervical carcinoma cells (HPV-negative) stably expressing BPV1 E2 and an HPV18 LCR luciferase reporter. Reagents: siRNA pool against human genes, 40 nM. Duration: 72 h. Measurement: 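Per-well luciferase luminescence, z-scored on each plate against the plate mean and SD with control wells left out, then averaged across three replicate plates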. Scale: mean z-score and z-score: higher = stronger reporter signal, weaker E2 silencing. Rule for the call: 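Hit if mean z-score reaches 2 and two or more of three replicate z-scores also reach 2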.
This is an unselected part of about 21,000 reagents. In the full data, 497 (2.4%) were called active. 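Higher z means weaker E2 silencing; only reporter increases were scored, and knock-downs that hurt cell survival may mask genuine repressor factors.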

Knock-down of KRTAP5-11 (keratin associated protein 5-11) gave: mean z-score 0.68; z-score, replicate A = 0.88; z-score, replicate B = 0.58; z-score, replicate C = 0.59; inactive.
TET1 (tet methylcytosine dioxygenase 1) gave mean z-score -0.41; z-score, replicate A = 0.05; z-score, replicate B = -0.71; z-score, replicate C = -0.57; inactive.
Against LOC220998 (retired record) the deposit lists mean z-score -0.29; z-score, replicate A = -0.21; z-score, replicate B = -0.46; z-score, replicate C = -0.21; inactive.
After knock-down of RPL32 (ribosomal protein L32), the screen gave mean z-score -3.22; z-score, replicate A = -3.45; z-score, replicate B = -3.16; z-score, replicate C = -3.06; inactive.
For BMP15 (bone morphogenetic protein 15) the deposit lists mean z-score -0.07; z-score, replicate A = -0.08; z-score, replicate B = -0.16; z-score, replicate C = 0.02; inactive.
DBT (dihydrolipoamide branched chain transacylase E2) gave mean z-score 0.66; z-score, replicate A = 0.77; z-score, replicate B = 0.43; z-score, replicate C = 0.77; inactive.
For PCDH10 (protocadherin 10), the values are mean z-score 1.11; z-score, replicate A = 0.74; z-score, replicate B = 1.16; z-score, replicate C = 1.42; inactive.
PLEKHF2 (pleckstrin homology and FYVE domain containing 2) showed mean z-score 0.83; z-score, replicate A = 0.57; z-score, replicate B = 1.07; z-score, replicate C = 0.84; inactive.
YPEL3 (yippee like 3) showed mean z-score 0.03; z-score, replicate A = 0.07; z-score, replicate B = 0.04; z-score, replicate C = -0.03; inactive.
Silencing of PRRC2A (proline rich coiled-coil 2A) resulted in: mean z-score 0.94; z-score, replicate A = 1.15; z-score, replicate B = 0.97; z-score, replicate C = 0.7; inactive.
LOC152122 (retired record) scored mean z-score 0.42; z-score, replicate A = 0.52; z-score, replicate B = 0.49; z-score, replicate C = 0.24; inactive.
For ARHGAP8 (Rho GTPase activating protein 8), the values are mean z-score -0.04; z-score, replicate A = -0.07; z-score, replicate B = -0.14; z-score, replicate C = 0.08; inactive.
Depletion of HK2 (hexokinase 2) came out at: mean z-score 2.07; z-score, replicate A = 2.46; z-score, replicate B = 1.88; z-score, replicate C = 1.88; inactive.
TMEM200A (transmembrane protein 200A) scored mean z-score -1.75; z-score, replicate A = -2.06; z-score, replicate B = -1.76; z-score, replicate C = -1.43; inactive.
With knock-down of DYNLT2B (dynein light chain Tctex-type 2B), the screen gave mean z-score -0.06; z-score, replicate A = -0.08; z-score, replicate B = -0.27; z-score, replicate C = 0.18; inactive.
With knock-down of SIAH2 (siah E3 ubiquitin protein ligase 2), the screen gave mean z-score 0.71; z-score, replicate A = 0.82; z-score, replicate B = 0.5; z-score, replicate C = 0.81; inactive.
After knock-down of SH3YL1 (SH3 and SYLF domain containing 1), the screen gave mean z-score -1.35; z-score, replicate A = -1.22; z-score, replicate B = -1.37; z-score, replicate C = -1.47; inactive.
Knock-down of CCNB1 (cyclin B1) resulted in: mean z-score 0.48; z-score, replicate A = 0.48; z-score, replicate B = 0.38; z-score, replicate C = 0.58; inactive.
With knock-down of DYNC1H1 (dynein cytoplasmic 1 heavy chain 1), the record shows mean z-score -1.31; z-score, replicate A = -1.31; z-score, replicate B = -1.4; z-score, replicate C = -1.21; inactive.
For ALDH4A1 (aldehyde dehydrogenase 4 family member A1), the entry reads mean z-score 0.12; z-score, replicate A = 0.45; z-score, replicate B = 0.1; z-score, replicate C = -0.2; inactive.
Silencing of NME3 (NME/NM23 nucleoside diphosphate kinase 3) resulted in: mean z-score -1.33; z-score, replicate A = -1.53; z-score, replicate B = -1.45; z-score, replicate C = -1.02; inactive.

4 consecutive entries from above:
CCNB1 (cyclin B1) → mean z-score = 0.48; z-score, replicate A = 0.48; z-score, replicate B = 0.38; z-score, replicate C = 0.58; Outcome = inactive
DYNC1H1 (dynein cytoplasmic 1 heavy chain 1) → mean z-score = -1.31; z-score, replicate A = -1.31; z-score, replicate B = -1.4; z-score, replicate C = -1.21; Outcome = inactive
ALDH4A1 (aldehyde dehydrogenase 4 family member A1) → mean z-score = 0.12; z-score, replicate A = 0.45; z-score, replicate B = 0.1; z-score, replicate C = -0.2; Outcome = inactive
NME3 (NME/NM23 nucleoside diphosphate kinase 3) → mean z-score = -1.33; z-score, replicate A = -1.53; z-score, replicate B = -1.45; z-score, replicate C = -1.02; Outcome = inactive
